Test results taken from US7628992.

Biological target: HV62 peptide (synthetic 62-residue polypeptide corresponding to residues 33-94 of human VAMP-2), P63027

B1: native TeTx L chain (authentic L chain of tetanus toxin) (protein)
chain: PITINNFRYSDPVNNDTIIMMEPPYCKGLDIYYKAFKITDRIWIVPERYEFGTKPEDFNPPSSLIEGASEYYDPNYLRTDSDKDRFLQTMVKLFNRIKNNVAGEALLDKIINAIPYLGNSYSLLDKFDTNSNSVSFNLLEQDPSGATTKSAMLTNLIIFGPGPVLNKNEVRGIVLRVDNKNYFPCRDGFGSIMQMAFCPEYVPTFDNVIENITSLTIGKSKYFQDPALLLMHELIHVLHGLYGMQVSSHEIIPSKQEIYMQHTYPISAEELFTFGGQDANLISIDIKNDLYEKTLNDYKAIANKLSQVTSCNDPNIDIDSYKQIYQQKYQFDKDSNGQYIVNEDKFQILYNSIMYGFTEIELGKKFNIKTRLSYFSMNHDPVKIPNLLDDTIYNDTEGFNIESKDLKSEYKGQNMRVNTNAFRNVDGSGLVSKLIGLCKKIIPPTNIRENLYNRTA
- initial rate of substrate cleavage at 37° C. with 100 nM L chain: 45.6 pmol/min
